Values joined by “and” are separate entries in the source; they are usually repeats but may differ in a detail not shown here. Identical values can stand only once. Like-named read-outs stand apart in the source and are kept apart here.
Legend:
hNaV1.4 = hNaV1.4 (Homo sapiens, UniProt P35499); experiment: Automated whole-cell patch-clamp electrophysiology, hNaV1.4/β1 in HEK293 cells; details: for IC50: 22 °C, mean ± SEM
hNaV1.8 = hNaV1.8 (Homo sapiens, UniProt Q9Y5Y9); experiment: Automated whole-cell patch-clamp electrophysiology, hNaV1.8/β3 in CHO cells; details: up to 1 µM; CHO hNaV1.8/β3, TTX 1 µM present, Figure S6
hNaV1.2 = hNaV1.2 (Homo sapiens, UniProt Q99250); experiment: Automated whole-cell patch-clamp electrophysiology, hNaV1.2/β1 in HEK293 cells; details: read-out: IC50 NaV1.2; automated whole-cell patch-clamp (QPatch-16), HEK293 hNaV1.2/β1, 0.1% BSA, 5 min per concentration, 22 °C; mean ± SEM, n = 3–10 cells
hNaV1.3 = hNaV1.3 (Homo sapiens, UniProt Q9NY46); experiment: Automated whole-cell patch-clamp electrophysiology, hNaV1.3/β1 in HEK293 cells; details: read-out: IC50 NaV1.3; automated whole-cell patch-clamp (QPatch-16), HEK293 hNaV1.3/β1, 0.1% BSA, 5 min per concentration, 22 °C; mean ± SEM, n = 3–10 cells
hNaV1.5 = hNaV1.5 (Homo sapiens, UniProt Q14524); experiment: Automated whole-cell patch-clamp electrophysiology, hNaV1.5/β1 in HEK293 cells; details: up to 1 µM; HEK293 hNaV1.5/β1, Figure S6
hNaV1.7 = hNaV1.7 (Homo sapiens, UniProt Q15858); experiment: Automated whole-cell patch-clamp electrophysiology, hNaV1.7/β1 in HEK293 cells; details: for IC50: read-out: IC50 NaV1.7, automated whole-cell patch-clamp (QPatch-16), HEK293 hNaV1.7/β1, 0.1% BSA, 5 min per concentration, 22 °C, mean ± SEM, n = 3–10 cells
[1] = read-out: IC50 hNav1.4, analogue series (Table 3), automated whole-cell patch-clamp, HEK293 hNaV1.4/β1, 5 min per concentration, n = 3–4 cells
[2] = read-out: IC50 NaV1.4, automated whole-cell patch-clamp (QPatch-16), HEK293 hNaV1.4/β1, 0.1% BSA, 5 min per concentration, n = 3–10 cells
[3] = 1 µM, highest concentration tested

Sequences of proteins named here, by UniProt entry; tags and fusion partners are left off. Residues count along the entry.
UniProt P35499, whole entry: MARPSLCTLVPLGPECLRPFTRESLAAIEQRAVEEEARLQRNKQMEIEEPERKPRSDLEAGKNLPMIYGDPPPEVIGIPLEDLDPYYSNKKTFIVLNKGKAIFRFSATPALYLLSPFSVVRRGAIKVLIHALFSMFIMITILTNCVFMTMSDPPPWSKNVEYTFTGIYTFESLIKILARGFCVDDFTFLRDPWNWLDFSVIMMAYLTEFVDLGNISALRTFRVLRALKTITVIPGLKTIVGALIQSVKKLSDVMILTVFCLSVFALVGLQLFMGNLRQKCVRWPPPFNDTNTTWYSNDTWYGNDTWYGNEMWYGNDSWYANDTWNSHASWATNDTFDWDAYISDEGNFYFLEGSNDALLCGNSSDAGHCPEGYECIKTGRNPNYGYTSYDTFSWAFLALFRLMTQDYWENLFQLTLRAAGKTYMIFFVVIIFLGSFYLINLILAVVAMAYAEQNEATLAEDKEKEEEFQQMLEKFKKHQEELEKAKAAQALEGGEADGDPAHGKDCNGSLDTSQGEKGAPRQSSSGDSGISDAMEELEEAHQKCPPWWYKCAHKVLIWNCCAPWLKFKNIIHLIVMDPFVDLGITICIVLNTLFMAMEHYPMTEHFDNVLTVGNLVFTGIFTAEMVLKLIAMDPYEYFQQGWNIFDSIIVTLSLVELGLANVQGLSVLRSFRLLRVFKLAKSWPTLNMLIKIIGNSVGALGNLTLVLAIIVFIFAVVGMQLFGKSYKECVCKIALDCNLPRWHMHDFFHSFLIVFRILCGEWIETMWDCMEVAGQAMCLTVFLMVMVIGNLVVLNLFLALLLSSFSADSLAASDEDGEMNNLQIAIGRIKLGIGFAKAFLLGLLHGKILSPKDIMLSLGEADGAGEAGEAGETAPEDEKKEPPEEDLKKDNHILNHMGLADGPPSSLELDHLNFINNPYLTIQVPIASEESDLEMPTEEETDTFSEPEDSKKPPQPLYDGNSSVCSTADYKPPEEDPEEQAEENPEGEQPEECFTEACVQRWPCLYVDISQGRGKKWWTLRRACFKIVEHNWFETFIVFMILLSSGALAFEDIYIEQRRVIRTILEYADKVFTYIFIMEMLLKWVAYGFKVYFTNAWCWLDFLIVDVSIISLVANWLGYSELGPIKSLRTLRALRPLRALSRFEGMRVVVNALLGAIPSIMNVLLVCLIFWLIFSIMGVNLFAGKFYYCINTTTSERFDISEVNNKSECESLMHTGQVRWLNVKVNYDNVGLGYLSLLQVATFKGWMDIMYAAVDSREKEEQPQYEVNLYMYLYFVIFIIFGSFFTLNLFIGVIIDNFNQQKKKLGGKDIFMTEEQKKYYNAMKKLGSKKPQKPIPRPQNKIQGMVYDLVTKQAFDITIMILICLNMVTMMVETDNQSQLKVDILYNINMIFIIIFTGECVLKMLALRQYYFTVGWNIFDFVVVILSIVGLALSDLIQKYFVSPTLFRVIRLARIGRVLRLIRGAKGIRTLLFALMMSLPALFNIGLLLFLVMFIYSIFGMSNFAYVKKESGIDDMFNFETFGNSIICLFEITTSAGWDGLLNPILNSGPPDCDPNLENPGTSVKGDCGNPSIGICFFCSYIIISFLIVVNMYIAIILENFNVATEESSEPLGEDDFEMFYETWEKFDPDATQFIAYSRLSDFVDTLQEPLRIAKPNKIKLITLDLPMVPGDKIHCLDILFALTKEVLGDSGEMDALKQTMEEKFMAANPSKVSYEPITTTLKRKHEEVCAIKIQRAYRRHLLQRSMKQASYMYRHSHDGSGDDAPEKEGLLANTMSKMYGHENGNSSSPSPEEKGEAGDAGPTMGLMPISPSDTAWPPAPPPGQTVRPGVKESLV
UniProt Q14524, whole entry: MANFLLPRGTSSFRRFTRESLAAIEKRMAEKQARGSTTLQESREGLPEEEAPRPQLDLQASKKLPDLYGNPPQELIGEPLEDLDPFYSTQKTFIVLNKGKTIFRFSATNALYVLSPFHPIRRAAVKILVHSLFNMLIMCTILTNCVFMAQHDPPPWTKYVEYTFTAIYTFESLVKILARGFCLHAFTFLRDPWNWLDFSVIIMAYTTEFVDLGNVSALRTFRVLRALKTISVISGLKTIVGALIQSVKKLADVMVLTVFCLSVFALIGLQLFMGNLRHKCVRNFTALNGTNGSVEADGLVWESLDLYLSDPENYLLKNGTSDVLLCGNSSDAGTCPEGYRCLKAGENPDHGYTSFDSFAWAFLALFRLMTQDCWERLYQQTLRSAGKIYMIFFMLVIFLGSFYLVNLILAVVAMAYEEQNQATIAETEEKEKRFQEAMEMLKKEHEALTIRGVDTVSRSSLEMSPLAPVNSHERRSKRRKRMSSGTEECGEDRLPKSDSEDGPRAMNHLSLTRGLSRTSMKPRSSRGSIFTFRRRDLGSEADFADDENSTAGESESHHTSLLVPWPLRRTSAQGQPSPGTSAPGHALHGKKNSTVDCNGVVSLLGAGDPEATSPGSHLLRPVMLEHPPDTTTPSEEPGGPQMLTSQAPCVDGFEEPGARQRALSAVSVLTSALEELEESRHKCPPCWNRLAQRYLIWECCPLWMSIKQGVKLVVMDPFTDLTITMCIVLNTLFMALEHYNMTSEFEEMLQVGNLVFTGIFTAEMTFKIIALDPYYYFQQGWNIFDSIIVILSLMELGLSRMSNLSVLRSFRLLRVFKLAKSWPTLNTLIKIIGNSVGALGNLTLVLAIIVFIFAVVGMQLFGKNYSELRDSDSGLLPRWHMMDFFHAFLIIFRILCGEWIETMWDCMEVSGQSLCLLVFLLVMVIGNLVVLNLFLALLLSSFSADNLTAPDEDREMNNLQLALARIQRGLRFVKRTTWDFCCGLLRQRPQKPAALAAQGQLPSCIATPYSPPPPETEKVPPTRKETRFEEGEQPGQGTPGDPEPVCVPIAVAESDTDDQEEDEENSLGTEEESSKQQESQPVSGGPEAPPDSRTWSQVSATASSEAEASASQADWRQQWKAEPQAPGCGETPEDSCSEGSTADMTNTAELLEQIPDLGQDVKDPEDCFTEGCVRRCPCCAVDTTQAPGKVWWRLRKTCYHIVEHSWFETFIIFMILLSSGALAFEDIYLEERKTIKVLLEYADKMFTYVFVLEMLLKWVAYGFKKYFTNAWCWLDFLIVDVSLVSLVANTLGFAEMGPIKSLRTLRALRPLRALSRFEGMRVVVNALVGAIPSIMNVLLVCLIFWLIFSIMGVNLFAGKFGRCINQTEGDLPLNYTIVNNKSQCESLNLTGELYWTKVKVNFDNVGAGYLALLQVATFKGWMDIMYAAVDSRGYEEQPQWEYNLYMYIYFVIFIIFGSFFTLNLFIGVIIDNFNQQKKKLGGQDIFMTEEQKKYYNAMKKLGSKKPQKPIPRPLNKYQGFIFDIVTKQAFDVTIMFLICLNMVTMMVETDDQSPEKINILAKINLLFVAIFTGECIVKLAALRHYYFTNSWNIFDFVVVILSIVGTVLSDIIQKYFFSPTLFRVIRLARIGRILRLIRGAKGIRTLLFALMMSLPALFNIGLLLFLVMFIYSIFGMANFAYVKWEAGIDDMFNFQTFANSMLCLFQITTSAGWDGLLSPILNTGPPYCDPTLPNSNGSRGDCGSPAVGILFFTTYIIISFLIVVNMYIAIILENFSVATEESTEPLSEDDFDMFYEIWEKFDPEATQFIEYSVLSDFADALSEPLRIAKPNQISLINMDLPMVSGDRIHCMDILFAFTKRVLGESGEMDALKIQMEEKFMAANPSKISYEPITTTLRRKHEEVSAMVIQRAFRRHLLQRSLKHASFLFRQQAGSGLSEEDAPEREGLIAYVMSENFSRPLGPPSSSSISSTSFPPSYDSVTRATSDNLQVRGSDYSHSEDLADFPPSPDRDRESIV
UniProt Q15858, whole entry: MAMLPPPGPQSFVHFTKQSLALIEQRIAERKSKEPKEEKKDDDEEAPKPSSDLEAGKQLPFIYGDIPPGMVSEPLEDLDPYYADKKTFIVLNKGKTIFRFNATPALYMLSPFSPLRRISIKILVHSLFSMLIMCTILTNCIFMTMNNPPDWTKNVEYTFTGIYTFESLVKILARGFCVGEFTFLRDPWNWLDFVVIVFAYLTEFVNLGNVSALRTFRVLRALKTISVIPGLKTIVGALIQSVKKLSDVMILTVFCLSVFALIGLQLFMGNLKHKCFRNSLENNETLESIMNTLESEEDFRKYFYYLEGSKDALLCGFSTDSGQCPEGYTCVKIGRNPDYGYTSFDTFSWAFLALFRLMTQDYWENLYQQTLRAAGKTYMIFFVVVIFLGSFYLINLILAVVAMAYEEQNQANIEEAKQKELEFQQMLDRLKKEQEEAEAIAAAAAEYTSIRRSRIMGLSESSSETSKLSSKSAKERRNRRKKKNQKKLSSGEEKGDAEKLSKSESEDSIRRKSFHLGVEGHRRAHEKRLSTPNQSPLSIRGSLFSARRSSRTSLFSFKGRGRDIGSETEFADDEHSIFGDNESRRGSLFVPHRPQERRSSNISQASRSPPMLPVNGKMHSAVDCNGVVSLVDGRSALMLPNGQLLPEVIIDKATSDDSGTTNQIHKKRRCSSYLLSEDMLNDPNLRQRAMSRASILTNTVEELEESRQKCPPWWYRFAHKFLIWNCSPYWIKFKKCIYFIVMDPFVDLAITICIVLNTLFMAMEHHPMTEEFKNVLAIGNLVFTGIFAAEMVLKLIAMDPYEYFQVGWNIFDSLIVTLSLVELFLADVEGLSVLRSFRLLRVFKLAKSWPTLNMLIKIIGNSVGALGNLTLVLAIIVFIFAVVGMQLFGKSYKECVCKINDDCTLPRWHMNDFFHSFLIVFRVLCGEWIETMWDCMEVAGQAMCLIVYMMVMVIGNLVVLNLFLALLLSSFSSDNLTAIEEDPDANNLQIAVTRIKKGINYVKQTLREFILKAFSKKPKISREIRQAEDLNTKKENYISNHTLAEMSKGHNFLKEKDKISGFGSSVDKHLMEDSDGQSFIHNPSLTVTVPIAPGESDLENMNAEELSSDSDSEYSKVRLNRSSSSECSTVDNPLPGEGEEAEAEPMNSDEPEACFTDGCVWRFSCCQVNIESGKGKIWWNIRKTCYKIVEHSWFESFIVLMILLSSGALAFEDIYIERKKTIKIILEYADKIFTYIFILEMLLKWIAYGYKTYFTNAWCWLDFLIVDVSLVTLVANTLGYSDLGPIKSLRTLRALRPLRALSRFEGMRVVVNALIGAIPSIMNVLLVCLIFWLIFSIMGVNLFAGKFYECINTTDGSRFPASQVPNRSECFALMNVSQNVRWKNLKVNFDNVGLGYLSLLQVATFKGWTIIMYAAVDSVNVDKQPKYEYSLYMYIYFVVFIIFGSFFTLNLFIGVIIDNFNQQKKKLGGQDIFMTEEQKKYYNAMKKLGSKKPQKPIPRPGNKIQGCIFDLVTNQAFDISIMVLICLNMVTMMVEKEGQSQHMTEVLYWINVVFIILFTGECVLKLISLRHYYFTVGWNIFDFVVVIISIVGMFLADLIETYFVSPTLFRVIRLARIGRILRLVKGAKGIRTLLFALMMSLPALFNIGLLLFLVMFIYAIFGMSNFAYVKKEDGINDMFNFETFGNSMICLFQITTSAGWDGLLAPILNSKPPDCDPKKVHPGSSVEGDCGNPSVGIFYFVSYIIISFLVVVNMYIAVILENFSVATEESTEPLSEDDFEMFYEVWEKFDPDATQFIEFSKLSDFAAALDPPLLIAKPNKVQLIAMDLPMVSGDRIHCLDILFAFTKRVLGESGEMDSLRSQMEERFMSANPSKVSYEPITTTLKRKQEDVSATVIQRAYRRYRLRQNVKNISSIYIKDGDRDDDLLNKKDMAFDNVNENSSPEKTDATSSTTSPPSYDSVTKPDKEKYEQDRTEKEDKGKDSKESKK
UniProt Q07699, 19-218 partner limits assumed: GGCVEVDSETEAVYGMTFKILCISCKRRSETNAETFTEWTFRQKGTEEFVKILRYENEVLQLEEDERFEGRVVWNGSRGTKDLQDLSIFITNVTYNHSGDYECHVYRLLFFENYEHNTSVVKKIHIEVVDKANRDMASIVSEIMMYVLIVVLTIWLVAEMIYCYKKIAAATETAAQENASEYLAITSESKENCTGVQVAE

SMILES: C[C@@H]1NC(=O)[C@H](Cc2c[nH]cn2)NC(=O)[C@H](CC(=O)O)NC(=O)[C@H](CCC(N)=O)NC(=O)[C@@H]2CSSC[C@H](NC(=O)CNC(=O)[C@@H](N)CCCNC(=N)N)C(=O)N[C@H]3CSSC[C@H](NC(=O)[C@H](CCCNC(=N)N)NC1=O)C(=O)N[C@H](C(N)=O)CSSC[C@H](NC(=O)CNC(=O)CNC(=O)[C@H](CCCNC(=N)N)NC(=O)CNC(=O)[C@H](CC(N)=O)NC3=O)C(=O)N[C@@H](CO)C(=O)N[C@@H](CO)C(=O)N[C@@H](CCCNC(=N)N)C(=O)N[C@@H](Cc1c[nH]c3ccccc13)C(=O)N2
- IC50 (hNaV1.4; [1]): 0.0995 µM

SMILES: C[C@@H]1NC(=O)[C@H](Cc2c[nH]cn2)NC(=O)[C@H](C)NC(=O)[C@H](CCCNC(=N)N)NC(=O)[C@@H]2CSSC[C@H](NC(=O)CNC(=O)[C@@H](N)CCCNC(=N)N)C(=O)N[C@H]3CSSC[C@H](NC(=O)[C@H](CCCNC(=N)N)NC1=O)C(=O)N[C@H](C(N)=O)CSSC[C@H](NC(=O)CNC(=O)CNC(=O)[C@H](CCCNC(=N)N)NC(=O)CNC(=O)[C@H](CC(N)=O)NC3=O)C(=O)N[C@@H](CO)C(=O)N[C@@H](CO)C(=O)N[C@@H](CCCNC(=N)N)C(=O)N[C@@H](Cc1c[nH]c3ccccc13)C(=O)N2
- IC50 (hNaV1.4; [1]): 0.0146 µM

SMILES: C[C@@H]1NC(=O)[C@H](Cc2c[nH]cn2)NC(=O)[C@H](CC(=O)O)NC(=O)[C@H](Cc2c[nH]cn2)NC(=O)[C@@H]2CSSC[C@H](NC(=O)CNC(=O)[C@@H](N)CCCNC(=N)N)C(=O)N[C@H]3CSSC[C@H](NC(=O)[C@H](CCCNC(=N)N)NC1=O)C(=O)N[C@H](C(N)=O)CSSC[C@H](NC(=O)CNC(=O)CNC(=O)[C@H](CCCNC(=N)N)NC(=O)CNC(=O)[C@H](CC(N)=O)NC3=O)C(=O)N[C@@H](CO)C(=O)N[C@@H](CO)C(=O)N[C@@H](CCCNC(=N)N)C(=O)N[C@@H](Cc1c[nH]c3ccccc13)C(=O)N2
- IC50 (hNaV1.4; [1]): 0.0803 µM

SMILES: C[C@@H]1NC(=O)[C@H](Cc2c[nH]cn2)NC(=O)[C@H](CC(=O)O)NC(=O)[C@H](C)NC(=O)[C@@H]2CSSC[C@H](NC(=O)CNC(=O)[C@@H](N)CCCNC(=N)N)C(=O)N[C@H]3CSSC[C@H](NC(=O)[C@H](CCCNC(=N)N)NC1=O)C(=O)N[C@H](C(N)=O)CSSC[C@H](NC(=O)CNC(=O)CNC(=O)[C@H](CCCNC(=N)N)NC(=O)CNC(=O)[C@H](CC(N)=O)NC3=O)C(=O)N[C@@H](CO)C(=O)N[C@@H](CO)C(=O)N[C@@H](CCCNC(=N)N)C(=O)N[C@@H](Cc1c[nH]c3ccccc13)C(=O)N2
- IC50 (hNaV1.4; [1]): 0.038 µM

SMILES: C[C@@H]1NC(=O)[C@H](C)NC(=O)[C@H](Cc2c[nH]cn2)NC(=O)[C@H](CC(=O)O)NC(=O)[C@H](CCCNC(=N)N)NC(=O)[C@@H]2CSSC[C@H](N)C(=O)N[C@H]3CSSC[C@H](NC1=O)C(=O)N[C@H](C(N)=O)CSSC[C@H](NC(=O)CNC(=O)CNC(=O)[C@H](CCCNC(=N)N)NC(=O)CNC(=O)[C@H](CC(N)=O)NC3=O)C(=O)N[C@@H](CO)C(=O)N[C@@H](CO)C(=O)N[C@@H](CCCNC(=N)N)C(=O)N[C@@H](Cc1c[nH]c3ccccc13)C(=O)N2
- IC50 (hNaV1.4; [1]): 0.222 µM

SMILES: C[C@@H]1NC(=O)[C@H](Cc2c[nH]cn2)NC(=O)[C@H](CC(=O)O)NC(=O)[C@H](CCCNC(=N)N)NC(=O)[C@@H]2CSSC[C@H](NC(=O)CNC(=O)[C@@H](N)CCCNC(=N)N)C(=O)N[C@H]3CSSC[C@H](NC(=O)[C@H](CCCNC(=N)N)NC1=O)C(=O)N[C@H](C(N)=O)CSSC[C@H](NC(=O)CNC(=O)CNC(=O)[C@H](CCCNC(=N)N)NC(=O)CNC(=O)[C@H](CC(N)=O)NC3=O)C(=O)N[C@@H](CO)C(=O)N[C@@H](CO)C(=O)N[C@@H](CCCNC(=N)N)C(=O)N[C@@H](Cc1c[nH]c3ccccc13)C(=O)N2
- IC50 (hNaV1.4; [1]): 0.0128 µM

SMILES: N=C(N)NCCC[C@@H]1NC(=O)CNC(=O)[C@H](CC(N)=O)NC(=O)[C@@H]2CSSC[C@@H]3NC(=O)[C@H](CCCNC(=N)N)NC(=O)[C@H](CO)NC(=O)[C@H](Cc4c[nH]cn4)NC(=O)[C@H](CC(=O)O)NC(=O)[C@H](CCCNC(=N)N)NC(=O)[C@H](CSSC[C@H](NC(=O)[C@H](CCCNC(=N)N)NC(=O)[C@@H]4CCC(=O)N4)C(=O)N2)NC(=O)[C@H](Cc2c[nH]c4ccccc24)NC(=O)[C@H](CCCNC(=N)N)NC(=O)[C@H](CO)NC(=O)[C@H](CO)NC(=O)[C@H](CSSC[C@@H](C(N)=O)NC3=O)NC(=O)CNC(=O)[C@H](CCCNC(=N)N)NC1=O
- inhibition of TTX-r hNaV1.8 (hNaV1.8): no inhibition
- IC50 (hNaV1.2): 0.172 µM
- IC50 (hNaV1.3): 0.095 µM
- IC50 (hNaV1.4; [2]): 0.014 µM
- inhibition of TTX-r hNaV1.5 (hNaV1.5): minimal to no inhibition
- fold difference in inhibitory potency at hNaV1.7 between SmIIIA and KIIIA (hNaV1.7; SmIIIA more potent): 9 fold and ~ 10 fold
- IC50 (hNaV1.7): 0.041 µM

SMILES: C[C@@H]1NC(=O)[C@H](Cc2c[nH]cn2)NC(=O)[C@H](CC(=O)O)NC(=O)[C@H](CCCNC(=N)N)NC(=O)[C@@H]2CSSC[C@H](N)C(=O)N[C@H]3CSSC[C@H](NC(=O)[C@H](CCCNC(=N)N)NC1=O)C(=O)N[C@H](C(N)=O)CSSC[C@H](NC(=O)CNC(=O)CNC(=O)[C@H](CCCNC(=N)N)NC(=O)CNC(=O)[C@H](CC(N)=O)NC3=O)C(=O)N[C@@H](CO)C(=O)N[C@@H](CO)C(=O)N[C@@H](CCCNC(=N)N)C(=O)N[C@@H](Cc1c[nH]c3ccccc13)C(=O)N2
- IC50 (hNaV1.4; [1]): 0.0963 µM

SMILES: C[C@@H]1NC(=O)[C@H](Cc2c[nH]cn2)NC(=O)[C@H](CC(=O)O)NC(=O)[C@H](Cc2c[nH]cn2)NC(=O)[C@@H]2CSSC[C@H](N)C(=O)N[C@H]3CSSC[C@H](NC(=O)[C@H](CCCNC(=N)N)NC1=O)C(=O)N[C@H](C(N)=O)CSSC[C@H](NC(=O)CNC(=O)CNC(=O)[C@H](CCCNC(=N)N)NC(=O)CNC(=O)[C@H](CC(N)=O)NC3=O)C(=O)N[C@@H](CO)C(=O)N[C@@H](CO)C(=O)N[C@@H](CCCNC(=N)N)C(=O)N[C@@H](Cc1c[nH]c3ccccc13)C(=O)N2
- IC50 (hNaV1.4; [1]): 0.221 µM

SMILES: C[C@@H]1NC(=O)[C@H](C)NC(=O)[C@H](Cc2c[nH]cn2)NC(=O)[C@H](CC(=O)O)NC(=O)[C@H](Cc2c[nH]cn2)NC(=O)[C@@H]2CSSC[C@H](N)C(=O)N[C@H]3CSSC[C@H](NC1=O)C(=O)N[C@H](C(N)=O)CSSC[C@H](NC(=O)CNC(=O)CNC(=O)[C@H](CCCNC(=N)N)NC(=O)CNC(=O)[C@H](CC(N)=O)NC3=O)C(=O)N[C@@H](CO)C(=O)N[C@@H](CO)C(=O)N[C@@H](CCCNC(=N)N)C(=O)N[C@@H](Cc1c[nH]c3ccccc13)C(=O)N2
- activity at hNaV1.4 at 1 µM (hNaV1.4; [3]): not active
- IC50 (hNaV1.4; [1]): > 1 µM
- inhibition at hNaV1.7 at 1 µM (hNaV1.7; [3]): ~ 50%

SMILES: C[C@@H]1NC(=O)[C@H](Cc2c[nH]cn2)NC(=O)[C@H](CC(=O)O)NC(=O)[C@H](CCCNC(=N)N)NC(=O)[C@@H]2CSSC[C@H](NC(=O)CNC(=O)[C@@H](N)CCCNC(=N)N)C(=O)N[C@H]3CSSC[C@H](NC(=O)[C@H](CCCNC(=N)N)NC1=O)C(=O)N[C@H](C(N)=O)CSSC[C@H](NC(=O)CNC(=O)[C@H](CCCNC(=N)N)NC(=O)[C@H](CCCNC(=N)N)NC(=O)CNC(=O)[C@H](CC(N)=O)NC3=O)C(=O)N[C@@H](CO)C(=O)N[C@@H](CO)C(=O)N[C@@H](CCCNC(=N)N)C(=O)N[C@@H](Cc1c[nH]c3ccccc13)C(=O)N2
- Fold Difference to SxIIIC (hNaV1.7) (hNaV1.7; ↓ fold-decrease, ↑ fold-increase in potency compared to SxIIIC, ns no significant difference): ns

SMILES: C[C@@H]1NC(=O)[C@H](C)NC(=O)[C@H](Cc2c[nH]cn2)NC(=O)[C@H](CC(=O)O)NC(=O)[C@H](CCCNC(=N)N)NC(=O)[C@@H]2CSSC[C@H](NC(=O)CNC(=O)[C@@H](N)CCCNC(=N)N)C(=O)N[C@H]3CSSC[C@H](NC1=O)C(=O)N[C@H](C(N)=O)CSSC[C@H](NC(=O)CNC(=O)CNC(=O)[C@H](CCCNC(=N)N)NC(=O)CNC(=O)[C@H](CC(N)=O)NC3=O)C(=O)N[C@@H](CO)C(=O)N[C@@H](CO)C(=O)N[C@@H](CCCNC(=N)N)C(=O)N[C@@H](Cc1c[nH]c3ccccc13)C(=O)N2
- IC50 (hNaV1.4; [1]): 0.0648 µM

SMILES: N=C(N)NCCC[C@@H]1NC(=O)[C@H](CO)NC(=O)[C@H](Cc2c[nH]cn2)NC(=O)[C@H](CC(=O)O)NC(=O)[C@H](CCCNC(=N)N)NC(=O)[C@@H]2CSSC[C@@H]3NC(=O)[C@@H](N)CSSC[C@H](NC1=O)C(=O)N[C@H](C(N)=O)CSSC[C@H](NC(=O)[C@H](CC(N)=O)NC3=O)C(=O)N[C@@H](CO)C(=O)N[C@@H](CO)C(=O)N[C@@H](CCCCN)C(=O)N[C@@H](Cc1c[nH]c3ccccc13)C(=O)N2
- IC50 (hNaV1.2): 0.186 µM
- IC50 (hNaV1.3): > 1 µM
- IC50 (hNaV1.4; [2]): 0.067 µM
- inhibition of TTX-r hNaV1.5 (hNaV1.5): minimal to no inhibition
- IC50 (hNaV1.7): 0.379 µM

SMILES: C[C@@H]1NC(=O)[C@H](C)NC(=O)[C@H](Cc2c[nH]cn2)NC(=O)[C@H](CC(=O)O)NC(=O)[C@H](Cc2c[nH]cn2)NC(=O)[C@@H]2CSSC[C@H](NC(=O)CNC(=O)[C@@H](N)CCCNC(=N)N)C(=O)N[C@H]3CSSC[C@H](NC1=O)C(=O)N[C@H](C(N)=O)CSSC[C@H](NC(=O)CNC(=O)CNC(=O)[C@H](CCCNC(=N)N)NC(=O)CNC(=O)[C@H](CC(N)=O)NC3=O)C(=O)N[C@@H](CO)C(=O)N[C@@H](CO)C(=O)N[C@@H](CCCNC(=N)N)C(=O)N[C@@H](Cc1c[nH]c3ccccc13)C(=O)N2
- IC50 (hNaV1.4; [1]): 0.248 µM
